Assay [1] relates to HT29. The settings on record: 5 minute exposure.
Assay [2] has as its system A375. Particulars: 5 minute exposure.
The subject of assay [3] is BO54 arterial smooth muscle cells. Particulars: 5 minute exposure.
Assay [4] concerns HT29. As to the kind of experiment: MTT metabolic activity after 24 hours exposure. The settings on record: 24-hour incubation, 16-18 hours recovery, concentration as Roridin A.
Assay [5] has as its system A375. As to the kind of experiment: MTT metabolic activity 48 hours after 5 minute exposure. Particulars: 48 hours recovery, conjugates: at the lower doses.
Assay [6] has as its system BO54. The description is as above. The settings on record: 48 hours recovery, conjugates: at the lower doses.
For assay [7], the system named is HT29. The assay is described as above. Particulars: 48 hours recovery, conjugates: at the lower doses.
In assay [8] the test system is intimal smooth muscle cells. The assay is described as follows: Intimal smooth muscle proliferation in traumatized and treated porcine arteries. The settings on record: control treatments; 5 weeks after trauma; scored on a scale from 1+ (minimal) to 4+ (maximal).
Where [9] appears, read: short-term (4 hour 3H-leucine directly after treatment).

Like-named read-outs stand apart in the source and are kept apart here. Where only a bound is given, the exact number is not on record here.

As to Roridin A, the protein synthesis entry in assay [1] (long-term (16-18 hours recovery period)) is listed as “still manifest after the 16-18 hours recovery period”; in assay [1] (setting [9]), “dose-response inhibition of cellular protein synthesis”; in assay [2] (long-term (16-18 hour recovery period)), “manifest even after a 16-18 hour recovery period”; in assay [2] (setting [9]), “non-specifically inhibitory to test cells”; in assay [3] (long-term, 50ng/ml), 98 % of control; in assay [3] (long-term, 100ng/ml), 46 % of control. For the same substance, the protein synthesis in assay [3] (long-term, 200ng/ml) is given as 27 % of control; in assay [3] (short-term, 50ng/ml), 90 % of control; in assay [3] (short-term, 100ng/ml), 66 % of control; in assay [3] (short-term, 200ng/ml), 60 % of control. Moreover, the “concentration at which inhibitory effects on metabolic activity were observed” value in assay [4] was > 10 ng/mL. For the same substance, the “metabolic activity (MTT)” value in assay [5] is “non-specifically inhibitory to target and non-target cell types”; in assay [6] it was “non-specifically inhibitory to target and non-target cell types”; in assay [7], “non-specifically inhibitory to target and non-target cell types”. Further, in assay [8], the “INTIMAL SMC HYPERTROPHY* ave. (range)” value was 4 (4).

The values are drawn from patent EP1826280A2 (priority 1992, dated 1994).
